Anti-infective test results gathered from many reports (values: NIAID ChemDB through PubChem).

Shared fields: whole-cell or culture tests; species: Mycobacterium avium complex; measure: MIC

Neighbouring rows are from separate reports.

CO[C@H]1/C=C/O[C@@]2(C)Oc3c(C)c(O)c4c(O)c(c(/C=N/N5CCN(C)CC5)c(O)c4c3C2=O)NC(=O)/C(C)=C\C=C\[C@H](C)[C@H](O)[C@@H](C)[C@@H](O)[C@@H](C)[C@H](OC(C)=O)[C@@H]1C ; strain: 101 ; value: 16 µg/mL
CCCCCCn1c(C)c(CN2CCN(C)CC2)c(CN2CCN(C)CC2)c1-c1ccc(Cl)cc1 ; strain: 103317 ; value: >64 µg/mL
CO[C@H]1/C=C/O[C@@]2(C)Oc3c(C)c(O)c4c(=O)c(c5oc6cc(N7CCN(CC(C)C)CC7)cc(=O)c6nc5c4c3=C2O)NC(=O)/C(C)=C\C=C\[C@H](C)[C@H](O)[C@@H](C)[C@@H](O)[C@@H](C)[C@H](O)[C@@H]1C ; strain: 31F093T ; value: 0.07 µg/mL
Cc1cc(CN2CCN(C)CC2)c(C)n1Cc1ccccc1 ; strain: 103317 ; value: >64 µg/mL
CO[C@H]1/C=C/O[C@@]2(C)Oc3c(C)c(O)c4c(=O)c(c5oc6cc(N7CCN(CC(C)C)CC7)cc(=O)c6nc5c4c3=C2O)NC(=O)/C(C)=C\C=C\[C@H](C)[C@H](O)[C@@H](C)[C@@H](O)[C@@H](C)[C@H](OC(C)=O)[C@@H]1C ; strain: 31F093T ; value: 0.07 µg/mL
CCCCCCn1c(C)cc(CN2CCOCC2)c1C ; strain: 103317 ; value: >64 µg/mL
CO[C@H]1/C=C/O[C@@]2(C)Oc3c(C)c(O)c4c(O)c(c(/C=N/N5CCN(C6CCCC6)CC5)c(O)c4c3C2=O)NC(=O)/C(C)=C\C=C\[C@H](C)[C@H](O)[C@@H](C)[C@@H](O)[C@@H](C)[C@H](OC(C)=O)[C@@H]1C ; strain: LPR ; value: 0.25 µg/mL
CC[C@@H](CO)NCCN[C@@H](CC)CO ; strain: N-444 ; value: 16 µg/mL
CCn1cc(C(=O)O)c(=O)c2cc(F)c(N3CCNCC3)nc21 ; strain: CIPT 140310023 ; value: 40 µg/mL
CCC1CCN(c2c(F)cc3c(=O)c(C(=O)O)cn(C4CC4)c3c2F)C1 ; strain: 1760694 ; value: 8 µg/mL
Clc1ccccc1C(c1ccccc1)(c1ccccc1)n1ccnc1 ; strain: 101 ; value: 0.03 µg/mL
CCCCCCn1c(C)ccc1-c1ccc(Cl)cc1 ; strain: 103317 ; value: >16 µg/mL
CO[C@H]1/C=C/O[C@@]2(C)Oc3c(C)c(O)c4c(=O)c(c5oc6cc(N7CCCCC7)cc(=O)c6nc5c4c3=C2O)NC(=O)/C(C)=C\C=C\[C@H](C)[C@H](O)[C@@H](C)[C@@H](O)[C@@H](C)[C@H](OC(C)=O)[C@@H]1C ; strain: 31F093T ; value: 0.15 µg/mL
CN[C@@H]1[C@H](O[C@H]2[C@H](O[C@H]3[C@H](O)[C@@H](O)[C@H](N=C(N)N)[C@@H](O)[C@@H]3N=C(N)N)O[C@@H](C)[C@]2(O)C=O)O[C@@H](CO)[C@H](O)[C@H]1O ; strain: Isolate C-40 ; value: 400 µg/mL
O=C(O)c1cn(C2CC2)c2c(F)c(N3CCNCC3)c(F)cc2c1=O ; strain: 1172733 ; value: 2 µg/mL
N[C@@H]1CN(c2c(F)cc3c(=O)c(C(=O)O)cn([C@@H]4C[C@@H]4F)c3c2Cl)CC12CC2 ; strain: N-966 ; value: 4 µg/mL
CCCCCCn1c(-c2ccc(Cl)cc2)cc(CN2CCN(C)CC2)c1C ; strain: 103317 ; value: >64 µg/mL
CO[C@H]1/C=C/O[C@@]2(C)Oc3c(C)c(O)c4c(=O)c(c5oc6cc(N7CCN(C=O)CC7)cc(=O)c6nc5c4c3=C2O)NC(=O)/C(C)=C\C=C\[C@H](C)[C@H](O)[C@@H](C)[C@@H](O)[C@@H](C)[C@H](OC(C)=O)[C@@H]1C ; strain: 31F093T ; value: 1.25 µg/mL
Cc1c(CN2CCOCC2)cc(-c2ccc(Cl)cc2)n1C1CCCCC1 ; strain: 103317 ; value: >64 µg/mL
CO[C@H]1/C=C/O[C@@]2(C)Oc3c(C)c(O)c4c(O)c(c5c(c4c3C2=O)NC2(CCN(CC(C)C)CC2)N=5)=NC(=O)/C(C)=C\C=C\[C@H](C)[C@H](O)[C@@H](C)[C@@H](O)[C@@H](C)[C@H](OC(C)=O)[C@@H]1C ; strain: MO-1 ; value: 2 µg/mL
CNC1CCN(c2c(F)cc3c(=O)c(C(=O)O)cn(C4CC4)c3c2F)C1 ; strain: PI12/39 ; value: 2 µg/mL
CCn1cc(C(=O)O)c(=O)c2cc(F)c(N3CCNCC3)cc21 ; strain: CIPT 14031001 ; value: 10 µg/mL
CC[C@@H](CO)NCCN[C@@H](CC)CO ; strain: N-444 ; value: 16 µg/mL
Cc1ccc(-c2ccc(Cl)cc2)n1Cc1ccccc1 ; strain: 103317 ; value: >16 µg/mL
CO[C@H]1/C=C/O[C@@]2(C)Oc3c(C)c(O)c4c(O)c(c(/C=N/N5CCN(C)CC5)c(O)c4c3C2=O)NC(=O)/C(C)=C\C=C\[C@H](C)[C@H](O)[C@@H](C)[C@@H](O)[C@@H](C)[C@H](OC(C)=O)[C@@H]1C ; strain: N-966 ; value: >100 µg/mL
O=C(O)c1cn(C2CC2)c2c(F)c(N3CCC(N4CCCC4)C3)c(F)cc2c1=O ; strain: 1172733 ; value: 2 µg/mL
CC(C)c1c(O)cc(C(N=C(N)N)C(=O)NCC(=O)O)cc1O ; strain: 101 ; value: 31 µg/mL
COc1c(N2CCNC(C)C2)c(F)cc2c(=O)c(C(=O)O)cn(C3CC3)c12 ; strain: N-966 ; value: 8 µg/mL
Cc1ccc(-c2ccc(Cl)cc2)n1C1CCCCC1 ; strain: 103317 ; value: >16 µg/mL
CC1CCN(c2c(F)cc3c(=O)c(C(=O)O)cn(C4CC4)c3c2F)C1 ; strain: 1988557 ; value: 2 µg/mL
CO[C@H]1/C=C/O[C@@]2(C)Oc3c(C)c(O)c4c(=O)c(c5oc6cc(N7CCN(CC(C)C)CC7)cc(=O)c6nc5c4c3=C2O)NC(=O)/C(C)=C\C=C\[C@H](C)[C@H](O)[C@@H](C)[C@@H](O)[C@@H](C)[C@H](OC(C)=O)[C@@H]1C ; strain: N-444 ; value: 0.06 µg/mL
O=C(O)c1cn(C2CC2)c2c(F)c(N3CC4C(CO)C4C3)c(F)cc2c1=O ; strain: 1172733 ; value: 8 µg/mL
Cc1ccc(-c2ccc(Cl)cc2)[nH]1 ; strain: 103317 ; value: >16 µg/mL
NC1CCCCN(c2c(F)cc3c(=O)c(C(=O)O)cn(C4CC4)c3c2F)C1=O ; strain: PI12/39 ; value: 32 µg/mL
CC[C@H]1OC(=O)[C@H](C)[C@@H](O[C@H]2C[C@@](C)(OC)[C@@H](O)[C@H](C)O2)[C@H](C)[C@@H](O[C@@H]2O[C@H](C)C[C@H](N(C)C)[C@H]2O)[C@](C)(OC)C[C@@H](C)C(=O)[C@H](C)[C@@H](O)[C@]1(C)O ; strain: N-966 ; value: 16 µg/mL

3 of the rows above, restated:

structure	strain	value
Clc1ccccc1C(c1ccccc1)(c1ccccc1)n1ccnc1	101	0.03 µg/mL
CCn1cc(C(=O)O)c(=O)c2cc(F)c(N3CCNCC3)cc21	CIPT 14031001	10 µg/mL
CCCCCCn1c(C)cc(CN2CCOCC2)c1C	103317	>64 µg/mL